Anti-infective test results gathered from many reports (values: NIAID ChemDB through PubChem).

Shared fields: growth or infection tests; organism: HIV-1; read-out: fold resistance

An empty or dashed field is not shown. Neighbouring rows are from separate reports. Fold resistance has wild type as its base.

smiles | strain or isolate | cell line | mutations | read by | value
CC(C)=CCOc1cc(NC(=S)c2ccsc2C)ccc1Cl | Dihydrocostatolide-resistant (RT-L100I) | CEM + CEM-SS | RT-L100I | XTT | 0.6
CCOCn1c(Cc2ccccc2)c(C(C)C)c(=O)[nH]c1=O | B-1 (RT L100V K103R/K Y188H) | CEM | RT-L100V K103R/K Y188H | cytopathic effect | 4
Nc1nc(NC2CC2)c2ncn([C@H]3C=C[C@@H](CO)C3)c2n1 | Recombinant | HeLa | RT-A62T V118I M184V | luciferase | 3
CC(C)CN(C[C@@H](O)[C@H](Cc1ccccc1)NC(=O)O[C@H]1CCO[C@H]2OCC[C@H]21)S(=O)(=O)c1ccc2nc(NC3CC3)sc2c1 | NL4-3 | MT-4 | L10I N37D G48V I54V L63P G73C I84V L90M | p24 / luminescence | 77
CC(C)=CCN1c2cc(Cl)cc3[nH]c(=S)n(c23)C[C@@H]1C |  | MT-4 | RT-M41L T215Y K101E |  | 15
CC(C)(C)NC(=O)[C@@H]1C[C@@H]2CCCC[C@@H]2CN1C[C@@H](O)[C@H](Cc1ccccc1)NC(=O)[C@H](CC(N)=O)NC(=O)c1ccc2ccccc2n1 | NL4-3 | MT-4 | PR-L10R M46I L63P V82T I84V | p24 | 8
CCc1c(Sc2ccccn2)n(COCc2ccccc2)c(=O)[nH]c1=O | NL4-3 | CEM + CEM-SS | RT-L74V | cytopathic effect / XTT | 1
CC(C)Oc1ccc(Cc2ccccc2)cc1C(=O)CC(=O)C(=O)O |  |  | INTG-S153Y |  | 1
Fc1cccc(F)c1C1SCc2nc3ccccc3n21 | IIIB HEPT-resistant (RT P236L) | CEM + CEM-SS | RT-P236L | cytopathic effect / XTT | 0.2
CCc1c(Sc2ccccn2)n(COCc2ccccc2)c(=O)[nH]c1=O | Costatolide-resistant (RT L100I T139I) | CEM + CEM-SS | RT-L100I T139I | XTT | 75
Cc1cn([C@H]2C=C[C@@H](CO)O2)c(=O)[nH]c1=O | RT-62V 69[SS] 70R 215Y |  | RT A62V T69SS insertion K70R T215Y |  | 1
Nc1ncnc2c1ncn2CC(CF)OCP(=O)(O)O | IIIB nevirapine-resistant (RT Y181C) | CEM | RT-Y181C | syncytia | 3.33
CCCc1cc(=O)oc2c3c(c4c(c12)OC(C)(C)C=C4)O[C@@H](C)[C@H](C)[C@@H]3O | UC781-R (RT-Y181C) | CEM + CEM-SS | RT-Y181C | cytopathic effect / XTT | <0.3
CCN[C@H]1CO[C@@H]2OCC[C@H](OC(=O)N[C@@H](Cc3cccc(OC)c3)[C@H](O)CN(CC(C)C)S(=O)(=O)c3ccc4nc(NC(C)C)sc4c3)[C@@H]21 | NL4-3 | MT-4 | L10I L33I M36I M46I I54V K55R I62V L63P A71V G73S V82T L90M I93L | p24 / luminescence | 2.2
Cc1ccnc2c1NC(=O)c1cccnc1N2C1CC1 | NL4-3 (RT M184V) | CEM + CEM-SS | RT-M184V | cytopathic effect / XTT | 5
CC(C)OC(=O)OCOP(=O)(CO[C@H](C)Cn1cnc2c(N)ncnc21)OCOC(=O)OC(C)C | A17 | MT-2 | RT-K103N Y181C | p24 | 0.0474
CC(C)(C)C(=O)c1sc(C(=O)NCCc2ccccc2)c(O)c1O |  |  | INTG-N155S |  | 1
Cc1cn([C@H]2C[C@H](N=[N+]=[N-])[C@@H](CO)O2)c(=O)[nH]c1=O | 4XAZT+Y181C (RT D67N K70R Y181C T215Y K219Q) | CEM + CEM-SS | RT-D67N K70R Y181C T215Y K219Q | cytopathic effect / XTT | 40
Nc1nc2c(ncn2[C@H]2CO[C@@H](CO)O2)c(=O)[nH]1 | RT-41L 69[SS] 215Y |  | RT M41L T69SS insertion T215Y |  | 2
Nc1ncnc2c1ncn2CCOCP(=O)(O)O | IIIB TIBO R82150-resistant (RT L100I) | CEM | RT-L100I | syncytia | 2.14
COC(=O)N[C@H](C(=O)N[C@@H](Cc1ccccc1)[C@@H](O)CN(Cc1ccc(-c2ccccn2)cc1)NC(=O)[C@@H](NC(=O)OC)C(C)(C)C)C(C)(C)C | NL4-3 | MT-4 | L10I I15V K20R L24I V32I M36I M46I L63P K70Q V82A I84V L89M | p24 / luminescence | >213
Cc1c(Sc2ccccc2)n(COCCO)c(=O)[nH]c1=O | IIIB | CEM + CEM-SS | RT-A98G V108I | cytopathic effect / XTT | >18
O=c1[nH]cnc2c1ncn2[C@H]1CC[C@@H](CO)O1 | Recombinant | PBMC | RT-Q151M | p24 | 0.65
C=C(C)OC(=O)N1c2cc(Cl)ccc2NC(=S)C1(C)C | B9 (RT L100I V106A G190A) | H9 | RT-L100I V106A G190A | p24 | >1670
Cc1cn([C@H]2C[C@H](N=[N+]=[N-])[C@@H](CO)O2)c(=O)[nH]c1=O |  |  | INTG-T66I S153Y |  | 1
CCc1c(C(=O)c2cc(C)cc(C)c2)n(CC2CC=CC2)c(=O)[nH]c1=O | 4XAZT/L100I (RT D67N K70R L100I T215Y K219Q) | CEM + CEM-SS | RT-D67N K70R L100I T215Y K219Q | cytopathic effect / XTT | 0.05
CC(C)CN(C[C@@H](O)[C@H](Cc1ccccc1)NC(=O)[C@H](CC(N)=O)NC(=O)c1ccc2ccccc2n1)C(=O)NC(C)(C)C | NL4-3 | MT-4 | PR-L10R L63P | p24 | 1
CCCN(C)C(=O)Oc1nsnc1-c1c(Cl)ccc(N)c1Cl | IIIB | MAGI | RT-E138K | MTT | 2.47
CN[C@H]1CO[C@@H]2OCC[C@H](OC(=O)N[C@@H](Cc3ccccc3)[C@H](O)CN(CC(C)C)S(=O)(=O)c3ccc4nc(NC5CC5)sc4c3)[C@@H]21 | NL4-3 | MT-4 | L10F L33I M36I M46I I54V K55R I62V L63P A71V G73S V82T | p24 / luminescence | 0.7
CC(C)Nc1cccnc1N1CCN(C(=O)c2cc3cc(NS(C)(=O)=O)ccc3[nH]2)CC1 | B9 (RT L100I V106A G190A) | H9 | RT-L100I V106A G190A | p24 | >55.6
Nc1ccn([C@H]2CC[C@@H](CO)O2)c(=O)n1 | JF10(RT-L210W) | HELA-CD4+ | RT-L210W | plaque count | 1.54
Cc1cn([C@H]2C[C@H](N=[N+]=[N-])[C@@H](CO)O2)c(=O)[nH]c1=O | Dihydrocostatolide-resistant (RT-L100I) | CEM + CEM-SS | RT-L100I | XTT | 0.6
Cc1cn([C@H]2C[C@H](N=[N+]=[N-])[C@@H](CO)O2)c(=O)[nH]c1=O | IIIB | MT-2 | K112M K113E V128I M200I H219P I401T R409K D437N L441P R41K | p24 / ELISA | 0.5
Cc1cc(S(N)(=O)=O)ccc1NC(=O)COc1ccc(Cl)cc1C(=O)c1cc(Cl)cc(C#N)c1 | NNRTI-resistant (RT V106M) | MAGI | RT-V106M | β-galactosidase | 2.5
C/C=C/CSc1cc(NC(=S)c2ccsc2C)ccc1Cl | UC10-resistant (RT Y181C K101E) | CEM + CEM-SS | RT-Y181C K101E | cytopathic effect / XTT | >33.3
CC(C)=CCOc1cc(NC(=S)c2ccoc2C)ccc1Cl | C-1 (RT-K101E) | CEM | RT-K101E | cytopathic effect | 3
Cc1cn([C@@H]2O[C@H](CO[Si](C)(C)C(C)(C)C)[C@@]3(OS(=O)(=O)C=C3N)[C@H]2O[Si](C)(C)C(C)(C)C)c(=O)[nH]c1=O | IIIB TIBO R82150-resistant (RT L100I) | CEM | RT-L100I | syncytia | 7
CC(C)=CCN1Cc2cc(Cl)cc3[nH]c(=S)n(c23)C[C@@H]1C | HXB2 | HT4 + HT4 LacZ-1 | RT-L74V Y181C | plaque count | 36.4
CCOP(=O)(COc1ccc(C[C@H](NC(=O)O[C@H]2CO[C@H]3OCC[C@H]32)[C@H](O)CN(CC(C)C)S(=O)(=O)c2ccc(OC)cc2)cc1)OCC | IIIB | MT-2 | L441P | p24 / ELISA | 1.5
Nc1ccn([C@@H]2CS[C@H](CO)O2)c(=O)n1 | Recombinant | PBMC | RT-V75I F77L Q151M | p24 | 0.04
Cc1cn([C@H]2C[C@H](N=[N+]=[N-])[C@@H](CO)O2)c(=O)[nH]c1=O | NRTI resistant | HeLa | RT-M41L D67N T69N K70R T215F K219E | luciferase | 21
Cc1ccnc2c1NC(=O)c1cccnc1N2C1CC1 | Thiazolobenzimidazole-resistant (RT V108I) | CEM + CEM-SS | RT-V108I | XTT | 30
Cc1ccc(S(=O)(=O)N(CC(C)C)C[C@@H](O)[C@H](Cc2ccccc2)NC(=O)O[C@H]2CO[C@H]3OCC[C@H]32)cc1 | IIIB | MT-2 | LPV-P31 lopinavir-resistant mutant | ATP | 0.8
Cc1ccnc2c1NC(=O)c1cccnc1N2C1CC1 | B-1 (RT L100V K103R/K Y188H) | CEM | RT-L100V K103R/K Y188H | cytopathic effect | 8
O=c1[nH]cnc2c1ncn2[C@H]1CC[C@@H](CO)O1 | IIIB nevirapine-resistant (RT Y181C) | CEM | RT-Y181C | syncytia | 5
Cc1occc1C(=S)Nc1ccc(Cl)c(/C=N/OC(C)(C)C)c1 | NL4-3 (RT M184V) | CEM + CEM-SS | RT-M184V | cytopathic effect / XTT | 1.25
Cn1c2ccccc2c2c1cc(C#N)c(=O)n2-c1ccc([N+](=O)[O-])cc1 | Recombinant | HeLa | RT-V118I M184V | luciferase | 4.2
Nc1nc2c(ncn2[C@H]2CC[C@@H](CO)O2)c(=O)[nH]1 | IIIB nevirapine-resistant (RT Y181C) | CEM | RT-Y181C | syncytia | 3

For reference, 7 entries again:

Cc1ccnc2c1NC(=O)c1cccnc1N2C1CC1 ; strain or isolate: NL4-3 (RT M184V) ; cell line: CEM + CEM-SS ; mutations: RT-M184V ; read by: cytopathic effect / XTT ; value: 5
CCc1c(Sc2ccccn2)n(COCc2ccccc2)c(=O)[nH]c1=O ; strain or isolate: Costatolide-resistant (RT L100I T139I) ; cell line: CEM + CEM-SS ; mutations: RT-L100I T139I ; read by: XTT ; value: 75
Nc1ccn([C@H]2CC[C@@H](CO)O2)c(=O)n1 ; strain or isolate: JF10(RT-L210W) ; cell line: HELA-CD4+ ; mutations: RT-L210W ; read by: plaque count ; value: 1.54
C=C(C)OC(=O)N1c2cc(Cl)ccc2NC(=S)C1(C)C ; strain or isolate: B9 (RT L100I V106A G190A) ; cell line: H9 ; mutations: RT-L100I V106A G190A ; read by: p24 ; value: >1670
CC(C)=CCN1Cc2cc(Cl)cc3[nH]c(=S)n(c23)C[C@@H]1C ; strain or isolate: HXB2 ; cell line: HT4 + HT4 LacZ-1 ; mutations: RT-L74V Y181C ; read by: plaque count ; value: 36.4
O=c1[nH]cnc2c1ncn2[C@H]1CC[C@@H](CO)O1 ; strain or isolate: Recombinant ; cell line: PBMC ; mutations: RT-Q151M ; read by: p24 ; value: 0.65
Cc1c(Sc2ccccc2)n(COCCO)c(=O)[nH]c1=O ; strain or isolate: IIIB ; cell line: CEM + CEM-SS ; mutations: RT-A98G V108I ; read by: cytopathic effect / XTT ; value: >18